Anti-infective test results gathered from many reports (values: NIAID ChemDB through PubChem).

Shared fields: whole-cell or culture tests; organism: HIV-1

Two numbers with a dash give a range or band. An empty or dashed field is not shown. Rows are shuffled and stem from different studies. ECn: concentration that inhibits the pathogen or its effect by n%.

SMILES,method,strain,endpoint,setting,mutations,cell line,result
CCc1c(C(=O)c2cc(C)cc(C)c2)n(CC2CC=CC2)c(=O)[nH]c1=O,cytopathic effect / XTT,ROJO,EC50,clinical isolate,-,PBMC,0.008 µM
CCc1cc(NCc2nc3c(Cl)ccc(Cl)c3o2)c(=O)[nH]c1C,-,IIIB,EC95,-,-,MT-4,0.05 µM
Cc1cn([C@@H]2O[C@H](CO[Si](C)(C)C(C)(C)C)C3(OS(=O)(=O)C=C3N)[C@H]2O[Si](C)(C)C(C)(C)C)c(=O)n(CCCO)c1=O,-,-,EC50,-,-,-,0.03–0.76 µM
COC(=O)[C@H](C)NP(=O)(OC[C@@H]1C=C[C@H](n2cnc3c(N)ncnc32)O1)Oc1ccccc1,p24,IIIB,EC50,-,-,PBL,0.008 µM
COc1c(O)c(Cl)c2c(c1OC)-c1c(c(Cl)c(O)c(OC)c1OC)C[C@H](C)[C@H](C)C2,cytopathic effect / MTT,TIBO-resistant L100I (RT-L100I),EC50,-,RT-L100I,MT-4,1.42 µM
CC(C)(C)NC(=O)[C@@H]1C[C@H](Cl)CN1C(=O)[C@@H](O)[C@H](Cc1ccccc1)NC(=O)[C@H](CC(N)=O)NC(=O)c1noc2ccccc12,p24,IIIB,EC50,-,-,MOLT-4/HIV-1(IIIB) + MOLT-4,<3.2 µM
CCn1nc(Cc2ccc(C)cc2)cc1C1CCN(C[C@H]2CN([C@@H](C(=O)O)C(C)(C)C)C[C@@H]2c2cccc(F)c2)CC1,β-galactosidase,BaL,EC90,50% human serum,-,HeLa,0.033 µM
Cc1cn([C@H]2C[C@H](N=[N+]=[N-])[C@@H](CO)O2)c(=O)[nH]c1=O,cytopathic effect / XTT,HXB2,EC50,-,-,MT-2,0.2 µM
COC(=O)[C@H](C)NP(=O)(OC[C@@H]1CC[C@H](n2cnc3c(N)ncnc32)O1)Oc1ccccc1,p24,IIIB,EC50,-,-,PBL,0.002 µM
CC(C)=CCN1Cc2cc(Cl)cc3[nH]c(=S)n(c23)C[C@@H]1C,syncytia,IIIB,EC50,-,-,CEM,0.02 µg/mL
CC[C@H](C)[C@H](C(=O)O)N1C[C@H](CN2CCC(c3cc(Cc4ccc5ccccc5c4)nn3CC)CC2)[C@@H](c2cccc(F)c2)C1,β-galactosidase,BaL,EC50,50% human serum,-,HeLa,<0.3 µM
O=C(NCc1ccc(F)cc1)c1nc(N2CCCCS2(=O)=O)c2cccnc2c1O,p24,NL4-3,EC50,-,-,-,0.004 µM
Cc1cn([C@H]2C[C@H](N=[N+]=[N-])[C@@H](CO)O2)c(=O)[nH]c1=O,p24,BAL R5,EC50,-,-,MM + M/M,0.003 µM
CC1(C)C2=CC(=O)C(O)(c3ccccc3)C(=O)N2c2ccc(Cl)cc21,cytopathic effect / MTT,HXB2,EC50,-,-,MT-4,0.11 µM
COc1ccc2c(c1)N(C[C@H](C)CN(C)C)c1ccccc1S2,-,LAV,EC50,-,-,MT-4,>10 µg/mL
Cc1ccnc(C(=O)CC(=O)c2cc(Cc3ccccc3)cc(CN3CCCS3(=O)=O)c2)c1,p24,IIIB,EC95,-,-,MT-4,0.51 µM
Cc1cn([C@@H]2O[C@H](CO[Si](C)(C)C(C)(C)C)C3(OS(=O)(=O)C=C3N)[C@H]2O[Si](C)(C)C(C)(C)C)c(=O)n(CCCNC(=O)OCc2ccccc2)c1=O,-,-,EC50,-,-,-,0.03–0.76 µM
CCNc1cccnc1N1CCN(C(=O)c2cc3cc(OC)ccc3[nH]2)CC1,syncytia,IIIB-Pyridinone(0.1)(RT-V179N,EC50,-,RT-V179N,CEM,0.53 µg/mL
CCO/N=C(\c1ccc(Br)cc1)C1CCN(C2(C)CCN(C(=O)c3c(C)cc[n+]([O-])c3C)CC2)CC1,p24,JV1083 R5 CLADE G,EC50,-,-,PBMC,0.00245 µM
Cc1cn([C@@H]2O[C@H](CO[Si](C)(C)C(C)(C)C)C3(OS(=O)(=O)C=C3N)[C@H]2O[Si](C)(C)C(C)(C)C)c(=O)n(CCCN(CCCl)CCCl)c1=O,-,-,EC50,-,-,-,0.03–0.76 µM
Cn1cc(C(=O)N[C@@H](CC(N)=O)C(=O)N[C@@H](Cc2ccccc2)[C@H](O)C(=O)N2C[C@@H](Cl)C[C@H]2C(=O)NC(C)(C)C)c2ccccc21,p24,IIIB,EC50,-,-,MOLT-4/HIV-1(IIIB) + MOLT-4,<2.1 µM
Cc1cn([C@H]2C[C@H](N=[N+]=[N-])[C@@H](CO)O2)c(=O)[nH]c1=O,ELISA,689,EC50,-,-,PBMC,0.02 µM
CCn1nc(Cc2cccnc2)cc1C1CCN(C[C@H]2CN([C@@H](C(=O)O)C(C)C)C[C@@H]2c2cccc(F)c2)CC1,β-galactosidase,BaL,EC50,-,-,HeLa,<0.011 µM
CCN(c1ncccc1NC(C)(C)C)C1CCN(C(=O)c2cc3cc(NS(C)(=O)=O)ccc3[nH]2)CC1,p24,Isolate 472,EC50,-,-,PBMC,<0.18 µM
CC(C)(C)C(=O)c1sc(C(=O)NCc2ccccc2)c(O)c1O,p24,GE98002 X4,EC50,-,-,PBMC,0.2 µM
O=c1[nH]cnc2c1ncn2[C@H]1CC[C@@H](CO)O1,RT activity,RF,EC50,-,-,C8166,0.62 µM
Nc1ncnc2c1ncn2CCOCP(=O)(O)O,syncytia,IIIB-Nevirapine(1.0)(RT-Y181C),EC50,-,RT-Y181C,CEM,22 µM
CCCC(=O)OC[C@@H](OC(=O)CCC)[C@@H](OC(=O)CCC)[C@H](Cn1c2nc(=O)[nH]c(=O)c-2nc2cc(C)c(C)cc21)OC(=O)CCC,-,LAV,EC50,-,-,MT-4,>100 µg/mL
CCCc1cc(=O)oc2c3c(c4c(c12)OC(C)(C)C=C4)O[C@@H](C)[C@H](C)[C@@H]3O,RT activity,CLADE A,EC50,-,-,PBMC,0.1 µM
CCn1nc(Cc2ccc(Cl)cc2)cc1C1CCN(C[C@H]2CN([C@@H](C(=O)O)C3CCCCC3)C[C@@H]2c2cccc(F)c2)CC1,β-galactosidase,BaL,EC50,-,-,HeLa,<0.0004 µM
Cc1cn([C@H]2C[C@H](N=[N+]=[N-])[C@@H](CO)O2)c(=O)[nH]c1=O,p24,Isolate 461,EC90,-,-,PBMC,0.3 µM
Cc1cn([C@H]2C[C@H](N=[N+]=[N-])[C@@H](CO)O2)c(=O)[nH]c1=O,cytopathic effect / MTT,A17,EC50,-,RT-K103N Y181C,MT-4,0.02 µM
CC(C)CN(C[C@@H](O)[C@H](Cc1ccccc1)NC(=O)O[C@H]1CCOC1)S(=O)(=O)c1ccc(N)cc1,cytopathic effect / MTT,NL4-3,EC50,-,PR-M46I V82T I84V 10R 63P,MT-4,0.099 µM
Nc1nc(NC2CC2)c2ncn([C@H]3C=C[C@@H](CO)C3)c2n1,cytopathic effect / XTT,LAI,EC50,-,-,MT-2,2.5 µM
CCc1cc(NCc2nc3c(Cl)ccc(Cl)c3o2)c(=O)[nH]c1C,syncytia,IIIB-TIBO(0.1),EC50,-,-,CEM,0.07 µg/mL
CCn1nc(Cc2cccc(F)c2)cc1C1CCN(C[C@H]2CN([C@@H](C(=O)O)C3CCCCC3)C[C@@H]2c2cccc(F)c2)CC1,β-galactosidase,BaL,EC90,-,-,HeLa,<0.00014 µM
Cc1ccnc2c1NC(=O)c1cccnc1N2C1CC1,XTT,Calanolide A-resistant (RT T139I),EC50,-,RT-T139I,CEM + CEM-SS,0.01 µM
CN1C(=O)CN=C(c2ccccc2)c2cc(Cl)ccc21,-,LAV,EC50,-,-,MT-4,>100 µg/mL
CC(C)(C)NC(=O)C1N(C(=O)[C@@H](O)[C@H](Cc2ccccc2)NC(=O)[C@H](CS(C)(=O)=O)NC(=O)COc2cccc3ccccc23)CSC1(C)C,p24,Clinical isolates,EC50,-,-,PBMC,0.03 µM
Nc1ccn([C@H]2CC[C@@H](CO)O2)c(=O)n1,XTT,HXB2D (RT-K65R),EC50,-,RT-K65R,MT-2,>30 µM
O=c1c2ccccc2n2nnc3ccc(NCCCN4CCN(CCCNc5ccc6nnn7c8ccccc8c(=O)c5c67)CC4)c1c32,p24,ddI-resistant,EC50,-,-,PBL,0.01 µM
COC(=O)Cn1c(=O)c(C)cn([C@@H]2O[C@H](CO[Si](C)(C)C(C)(C)C)C3(OS(=O)(=O)C=C3N)[C@H]2O[Si](C)(C)C(C)(C)C)c1=O,-,-,EC50,-,-,-,0.03–0.76 µM
Nc1nc2c(ncn2[C@H]2CO[C@@H](CO)O2)c(=O)[nH]1,p24,LAI,EC50,-,-,PBMC,0.25 µM
CCOc1cccc(Cc2cc(C3CCN(C[C@H]4CN([C@@H](C(=O)O)[C@H](C)CC)C[C@@H]4c4cccc(F)c4)CC3)n(CC)n2)c1,β-galactosidase,BaL,EC90,-,-,HeLa,<0.00014 µM
COC(=O)N[C@@H](Cc1c[nH]c2ccccc12)C(=O)NCCCC[C@@H](CO)N(CC(C)C)S(=O)(=O)c1ccc(N)cc1,cytopathic effect / MTT,NL4-3 WT,EC50,-,-,MT-4,0.136 µM
Cc1cn([C@H]2C[C@H](N=[N+]=[N-])[C@@H](CO)O2)c(=O)[nH]c1=O,XTT,Pyridinone-resistant (RT K103N Y181C),EC50,-,RT-K103N Y181C,CEM + CEM-SS,0.01 µM
CSC[C@H](NC(=O)COc1cccc2ccccc12)C(=O)N[C@@H](Cc1ccccc1)[C@H](O)C(=O)N1CSC(C)(C)[C@H]1C(=O)NC(C)(C)C,p24,Clinical isolates,EC50,-,-,PBMC,0.03 µM
Nc1nc(=O)n([C@@H]2CS[C@H](CO)O2)cc1F,-,RTMC (RT D67N K70R T215F K219Q),EC50,-,RT-D67N K70R T215F K219Q,HT4 + HT4 LacZ-1,0.4 µM
CCOC(=O)/C=C/n1c(=O)c(C)cn([C@@H]2O[C@H](CO[Si](C)(C)C(C)(C)C)C3(OS(=O)(=O)C=C3N)[C@H]2O[Si](C)(C)C(C)(C)C)c1=O,-,-,EC50,-,-,-,0.03–0.76 µM
C[C@H](NC(=O)[C@H](CCCN=C(N)N)NC(=O)c1ccc(CNCc2ccccn2)cc1)c1cccc2ccccc12,cytopathic effect / MTT,IIIB X4 laboratory isolate,EC50,-,-,MT-4,0.0193 µM
O=C1Nc2ccc(Cl)cc2C(C#Cc2ccccc2)(C2CC2)N1,-,IIIB,EC95,-,-,MT-4,0.1 µM
CC(C)=CCC/C(C)=C/CC/C(C)=C/CCC(=O)OC/C=C(\C)CCC=C(C)C,-,LAV,EC50,-,-,MT-4,>100 µg/mL
O=C1Nc2ccc(Cl)cc2C(C#Cc2ccccn2)(C2CC2)N1,-,IIIB,EC95,-,-,MT-4,0.03 µM
Nc1ccn([C@H]2CC[C@@H](CO)O2)c(=O)n1,-,74V (RT-L74V),EC50,-,RT-L74V,HT4 + HT4 LacZ-1,3.1 µM
CC(C)(C)NC(=O)[C@@H]1C[C@H](Cl)CN1C(=O)[C@@H](O)[C@H](Cc1ccccc1)NC(=O)[C@H](CC(N)=O)NC(=O)c1cnc2ccccc2n1,p24,IIIB,EC50,-,-,CEM,<0.12 µM
CCCc1cc(=O)oc2c3c(c4c(c12)OC(C)(C)C=C4)O[C@H](C)[C@@H](C)[C@@H]3O,XTT,NL4-3(RT-4XAZT+L100I),EC50,-,RT-D67N K70R L100I T215Y K219Q,CEM + CEM-SS,1.5 µM
CC(C)=CCN1Cc2cccc3[nH]c(=S)n(c23)C[C@@H]1C,cytopathic effect / MTT,N119 nevirapine-resistant (RT Y181C),EC50,-,RT-Y181C,MT-2,69.3 µM
CC(C)CN(C[C@@H](O)[C@H](Cc1ccccc1)NC(=O)O[C@H]1CCOC1)S(=O)(=O)c1ccc(N)cc1,MTT,HXB2,EC50,-,-,MT-4,0.082 µM
COc1ccc(Br)cc1CCNC(=S)Nc1nccs1,cytopathic effect,IIIB,EC50,-,-,MT-4,0.1 µM
CC[C@H](C)[C@H](C(=O)O)N1C[C@H](CN2CCC(c3cc(Cc4ccc(C)cc4)nn3CC)CC2)[C@@H](c2cccc(F)c2)C1,β-galactosidase,BaL,EC50,50% human serum,-,HeLa,<0.011 µM
CC(C)=CCN1Cc2cc(Cl)cc3[nH]c(=S)n(c23)C[C@@H]1C,cytopathic effect / XTT,IIIB,EC50,-,-,MT-4,0.21 µM
Nc1ncnc2c1ncn2CCOCP(=O)(O)O,cytopathic effect / XTT,IIIB,EC50,-,-,MT-2,8.9 µM
Cc1ccnc2c1NC(=O)c1cccnc1N2C1CC1,cytopathic effect / XTT,22(RT-L100I Y188H),EC50,-,RT-L100I Y188H,MT-4,14 µM
NCC(=O)Nc1ccc(Cl)cc1C(=O)c1ccc[nH]1,cytopathic effect / MTT,IIIB,EC50,-,-,CEM,0.13 µg/mL
S=C(NCCc1ccccn1)Nc1ccc(Cl)cn1,cytopathic effect,IIIB,EC50,-,-,MT-4,0.017 µM
CCn1nc(Cc2ccc(OC3CC3)cc2)cc1C1CCN(C[C@H]2CN([C@@H](C(=O)O)C3CCCCC3)C[C@@H]2c2cccc(F)c2)CC1,β-galactosidase,BaL,EC50,50% human serum,-,HeLa,<0.033 µM
CCCCC1(O)C(=O)C=C2N(C1=O)c1ccccc1C2(C)C,cytopathic effect / MTT,RF,EC50,-,-,MT-4,>100 µM
CCn1nc(Cc2cc(C(F)(F)F)cc(C(F)(F)F)c2)cc1C1CCN(C[C@H]2CN([C@@H](C(=O)O)C(C)C)C[C@@H]2c2cccc(F)c2)CC1,β-galactosidase,BaL,EC90,50% human serum,-,HeLa,>0.3 µM
CC(C)(C)NC(=O)[C@@H]1[C@@H](Cl)CCN1C(=O)[C@@H](O)[C@H](Cc1ccccc1)NC(=O)[C@H](CC(N)=O)NC(=O)OCc1ccccc1,p24,IIIB,EC50,-,-,CEM,<1.5 µM